In PMC8713996, “An anti-tuberculosis compound screen using a zebrafish infection model identifies an aspartyl-tRNA synthetase inhibitor” (Disease Models & Mechanisms, 2021):

System: Mmar-R-TBA161-C (aspS R168G)

SMILES | Cross-resistance of the TBA161-C resistant mutant of M. marinum
O=c1c2ccccc2oc2nc3n(c(=O)c12)CCCS3 [TBA161-A, 3,4-dihydro-chromeno[2′,3′:4,5]pyrimido[2,1-b][1,3]thiazine-6,7-dione] | cross-resistance
O=c1c2cc(Br)ccc2oc2nc3n(c(=O)c12)CCCS3 [TBA161-B, 9-bromo-3,4-dihydro-chromeno[2′,3′:4,5]pyrimido[2,1-b][1,3]thiazine-6,7-dione] | cross-resistance
